Pooled drug test results. Numbers come from NIAID ChemDB, via PubChem.

Shared fields: growth or infection tests; agent: HIV-1; read-out: EC50

Two numbers with a dash give a range or band. ECn is the concentration giving n% inhibition of infection, replication or growth. Neighbouring rows are from separate reports. Blank or dashed fields: not listed here.

| smiles | strain or isolate | mutations | cell line | method | setting | result |
|---|---|---|---|---|---|---|
| Nc1nc(NC2CC2)c2ncn([C@H]3C=C[C@@H](CO)C3)c2n1 | IIIB | - | MT-4 + CEM | cytopathic effect | - | 5.9 µM |
| COc1cnc(-n2cnc(C)n2)c2[nH]cc(C(=O)C(=O)N3CCN(C(=O)c4ccccc4)CC3)c12 | AD8 | - | U-87 | luciferase | - | 0.0024 µM |
| Nc1ncnc2c1ncn2[C@@H]1O[C@H](COC2(c3ccccc3)c3ccccc3Oc3ccccc32)[C@@H](OC2(c3ccccc3)c3ccccc3Oc3ccccc32)[C@H]1OC1CCCCO1 | IIIB | - | U-937/HIV-1(IIIB) + U-937 | RT activity | chronic infection | 1.5 µM |
| O=C(O)c1ccc(-c2c3nc(c(-c4ccc(C(=O)O)cc4)c4ccc([nH]4)c(-c4ccc(C(=O)O)cc4)c4nc(c(-c5ccc(C(=O)O)cc5)c5ccc2[nH]5)C=C4)C=C3)cc1 | IIIB | - | HuT-78 + HUT 78 | syncytia | - | 10 µg/mL |
| CC(C)C1=C2[C@H]3CC[C@@H]4[C@@]5(C)CC[C@H](OC(=O)[C@H]6C[C@@H](C(=O)O)C6(C)C)C(C)(C)[C@@H]5CC[C@@]4(C)[C@]3(C)CC[C@@]2([C@@H](O)CNCC(CCCN)NC(=O)c2ccc(Cl)cc2)CC1=O | 92HT599 | - | MT-2 | p24 / ELISA | - | <1 µM |
| C#C[C@@]1(COP(=O)(O)OP(=O)(O)OP(=O)(O)O)C=C[C@H](n2cc(C)c(=O)[nH]c2=O)O1 | NL4-3 | P119S/T165A | TZM-bl | luciferase | - | 0.34 µM |
| Cc1ccc(S(=O)(=O)c2ccsc2NC(=O)C(F)(F)F)cc1 | IIIB | - | CEM + CEM/O | cytopathic effect / MTT | - | >8 µg/mL |
| COC(=O)[C@H](C)NP(=O)(OC[C@@H]1C=C[C@H](n2cc(C)c(=O)[nH]c2=O)O1)Oc1ccccc1 | BaL | - | MM + M/M | p24 | - | 0.02 µM |
| COc1cnc(CS(=O)c2nc3ccccc3[nH]2)c(C)c1-n1cccc1 | Clinical isolates | - | HEK293T | ELISA | - | 22 µM |
| O=C(Nc1sccc1S(=O)(=O)c1ccccc1)c1ccccc1 | IIIB | - | CEM + CEM/O | cytopathic effect / MTT | - | >40 µg/mL |
| COc1cnc(CS(=O)c2nc3ccc(C)cc3[nH]2)c(C)c1OC | Clinical isolates | - | HEK293T | ELISA | - | 50 µM |
| CC(C)C1=C2[C@H]3CC[C@@H]4[C@@]5(C)CC[C@H](OC(=O)[C@H]6C[C@@H](C(=O)O)C6(C)C)C(C)(C)[C@@H]5CC[C@@]4(C)[C@]3(C)CC[C@@]2(CCNC[C@@H](N)C(C)C)CC1=O | 92HT599 | - | MT-2 | p24 / ELISA | - | <1 µM |
| Cc1cc(OCCCOc2ccc(-c3cccc(C#N)c3)cc2)cnc1CS(=O)c1nc2ccccc2[nH]1 | Clinical isolates | - | HEK293T | ELISA | - | 5 µM |
| [2H]C(CNC(=O)c1ccc(Cl)cc1)NC(=O)C[C@@]12CC[C@]3(C)[C@H](CC[C@@H]4[C@@]5(C)CC[C@H](OC(=O)[C@H]6C[C@@H](C(=O)O)C6(C)C)C(C)(C)[C@@H]5CC[C@]43C)C1=C(C(C)C)C(=O)C2 | 92HT599 | - | MT-2 | p24 / ELISA | - | <1 µM |
| COC(=O)c1ccccc1S(=O)(=O)c1cc(Br)sc1NC=O | IIIB | - | CEM + CEM/O | cytopathic effect / MTT | - | >8 µg/mL |
| CC(C)C1=C2[C@H]3CC[C@@H]4[C@@]5(C)CC[C@H](OC(=O)[C@H]6C[C@@H](C(=O)O)C6(C)C)C(C)(C)[C@@H]5CC[C@@]4(C)[C@]3(C)CC[C@@]2(CCNC(=O)[C@@H]2CCCN2)CC1=O | 92HT599 | - | MT-2 | p24 / ELISA | - | <1 µM |
| CC(=O)Nc1sccc1S(=O)(=O)c1ccc(Cl)cc1 | IIIB | - | CEM + CEM/O | cytopathic effect / MTT | - | >40 µg/mL |
| COC(=O)c1cccc(-c2ccc(COc3cnc(CS(=O)c4nc5ccccc5[nH]4)c(C)c3)cc2)c1 | Clinical isolates | - | HEK293T | ELISA | - | 0.5 µM |
| COC1=C(Br)CC2(OC=C1Br)ON=C(C(=O)NCCCOc1c(Br)cc(CCN)cc1Br)[C@@H]2O | LAV | - | U1(HIV-1 (LAV)) + U1 | p24 | - | 20–200 µM |
| C=C(C)C1CC[C@]2(C(=O)O)CC[C@]3(C)C(CCC4[C@@]5(C)C[C@@H](C(=O)[O-])[C@H](O)C(C)(C)C5CC[C@]43C)C12 | MC99 (Tat/Rev defective) | - | 1A2 | syncytia | - | 5.6 µg/mL |
| COC(=O)[C@H](C)NP(=O)(OC[C@@H]1C=C[C@H](n2cnc3c(NC4CC4)nc(N)nc32)C1)Oc1ccccc1 | BaL | - | MM + M/M | antigen | - | 0.01 µM |
| CC(C)C1=C2[C@H]3CC[C@@H]4[C@@]5(C)CC[C@H](OC(=O)[C@H]6C[C@@H](C(=O)O)C6(C)C)C(C)(C)[C@@H]5CC[C@@]4(C)[C@]3(C)CC[C@@]2(CCNC(=O)c2ccc(Cl)cc2O[C@H]2CCOC2)CC1=O | 92HT599 | - | MT-2 | p24 / ELISA | - | <1 µM |
| Nc1sccc1S(=O)(=O)c1ccccc1 | IIIB | - | CEM + CEM/O | cytopathic effect / MTT | - | 23 µg/mL |
| O=c1cc(Cc2ccc3ccccc3c2)nc(SC2CCCC2)[nH]1 | IIIB | - | H9(HIV-1(IIIB)) + H9 | cytopathic effect / MTT | - | >100 µM |
| COCCNC(=O)COC(=O)c1c2c(nc3ccccc13)/C(=C/c1ccc(O)cc1)CCC2 | - | - | HEK 293 | β-galactosidase / GFP / reporter gene | - | 5 µM |
| Cc1ccc(-c2nc3ccc(C(=O)NCC[C@@]45CC[C@]6(C)[C@H](CC[C@@H]7[C@@]8(C)CC[C@H](OC(=O)[C@H]9C[C@@H](C(=O)O)C9(C)C)C(C)(C)[C@@H]8CC[C@]76C)C4=C(C(C)C)C(=O)C5)cc3[nH]2)cn1 | 92HT599 | - | MT-2 | p24 / ELISA | - | <1 µM |
| COC(=O)c1ccc(OCCCOc2ccnc(CSc3nc4ccccc4[nH]3)c2C)cc1OC | Clinical isolates | - | HEK293T | ELISA | - | 3 µM |
| CC(C)C1=C2[C@H]3CC[C@@H]4[C@@]5(C)CC[C@H](OC(=O)[C@H]6C[C@@H](C(=O)O)C6(C)C)C(C)(C)[C@@H]5CC[C@@]4(C)[C@]3(C)CC[C@@]2(CC(=O)NCC(C)(C)NC(=O)c2ccc(N3CCS(=O)(=O)CC3)cc2)CC1=O | 92HT599 | - | MT-2 | p24 / ELISA | - | <1 µM |
| CC[C@H](/C=C/[C@@H](C)[C@H]1CC[C@H]2[C@@H]3CC=C4C[C@@H](O[C@@H]5O[C@H](CO)[C@@H](O)[C@H](O)[C@H]5O)CC[C@]4(C)[C@H]3CC[C@]12C)C(C)C | MC99 (Tat/Rev defective) | - | 1A2 | syncytia | - | 73.6 µg/mL |
| CC(C)C1=C2[C@H]3CC[C@@H]4[C@@]5(C)CC[C@H](OC(=O)[C@H]6C[C@@H](C(=O)O)C6(C)C)C(C)(C)[C@@H]5CC[C@@]4(C)[C@]3(C)CC[C@@]2(CCNCC(C)(C)NC(=O)c2nccn2C)CC1=O | 92HT599 | - | MT-2 | p24 / ELISA | - | <1 µM |
| O=C1c2ccccc2C(=O)c2c1ccc(O)c2O | IIIB | - | SupT1 + Sup-T1 | cytopathic effect | - | >50 µg/mL |
| CC(C)C1=C2[C@H]3CC[C@@H]4[C@@]5(C)CC[C@H](OC(=O)[C@H]6C[C@@H](C(=O)O)C6(C)C)C(C)(C)[C@@H]5CC[C@@]4(C)[C@]3(C)CC[C@@]2(CC(=O)NCC(C)(C)NC(=O)c2ccc(N3CCCCC3)cn2)CC1=O | 92HT599 | - | MT-2 | p24 / ELISA | - | <1 µM |
| COC(=O)c1ccc(OCCCOc2cnc(CS(=O)c3nc4ccccc4[nH]3)c(C)c2)cc1OC | Clinical isolates | - | HEK293T | ELISA | - | 4 µM |

The first 4 rows once more:

smiles,strain or isolate,mutations,cell line,method,setting,result
Nc1nc(NC2CC2)c2ncn([C@H]3C=C[C@@H](CO)C3)c2n1,IIIB,-,MT-4 + CEM,cytopathic effect,-,5.9 µM
COc1cnc(-n2cnc(C)n2)c2[nH]cc(C(=O)C(=O)N3CCN(C(=O)c4ccccc4)CC3)c12,AD8,-,U-87,luciferase,-,0.0024 µM
Nc1ncnc2c1ncn2[C@@H]1O[C@H](COC2(c3ccccc3)c3ccccc3Oc3ccccc32)[C@@H](OC2(c3ccccc3)c3ccccc3Oc3ccccc32)[C@H]1OC1CCCCO1,IIIB,-,U-937/HIV-1(IIIB) + U-937,RT activity,chronic infection,1.5 µM
O=C(O)c1ccc(-c2c3nc(c(-c4ccc(C(=O)O)cc4)c4ccc([nH]4)c(-c4ccc(C(=O)O)cc4)c4nc(c(-c5ccc(C(=O)O)cc5)c5ccc2[nH]5)C=C4)C=C3)cc1,IIIB,-,HuT-78 + HUT 78,syncytia,-,10 µg/mL